Measured values from several laboratories, pooled; numbers as filed in NIAID ChemDB.

All rows: host cell toxicity; cell line: MRC-5; endpoint: CC50

a–b is a range or a potency band. CCn: concentration that lowers growth or viability of the cells by n%. Lines come from different laboratories, so protocols vary. An empty or dashed field is not shown.

compound	method	value
CC(Oc1ccc2ncccc2c1)C(=O)N/N=C/c1ccccc1	absorbance	>512 µM
Cc1cn([C@@H]2O[C@H](CO)[C@@H](O)[C@@H]2O)c(=S)[nH]c1=O		>730 µM
CCO/N=C/c1ccc(OCCC2CCN(c3ccc(C)nn3)CC2)cc1	neutral red	>0.1 µg/mL
CC(Oc1ccc2ncccc2c1)C(=O)N/N=C/c1ccc(CO)cc1	absorbance	>512 µM
CO/N=C/c1ccc(OCCC2CCN(c3cncc(Cl)n3)CC2)cc1	neutral red	>0.1 µg/mL
Cc1cc(O)c2c(c1)C(=O)c1cc(O)cc(O)c1C2=O		12.6 µM
CC(Oc1ccc2ncccc2c1)C(=O)N/N=C/c1ccc(Br)cc1	absorbance	>512 µM
COc1cc([C@@H]2c3cc4c(cc3[C@H](O)[C@H]3COC(=O)[C@H]23)OCO4)cc(OC)c1OC	MTT	>10 µg/mL
C=CC/C=C\C/C=C\CCCCCCCc1cccc(O)c1O	WST	5.83 µM
CCCCCCCCCCCCCCCCCCCCCCSC[C@H](O)COP(=O)(O)C(=O)O		320–1000 µM
CCCCCCCCCCCCCCCCCCOC[C@@H](O)COP(=O)(O)C(=O)O		>1000 µM
Cc1cc(O)c2c(c1)/C(=C1\c3cc(C)cc(O)c3C(=O)c3c(O)cc(O)cc31)c1cc(O)cc(O)c1C2=O		3.5 µM
CC(Oc1ccc2ncccc2c1)C(=O)N/N=C/c1cccc(Br)c1	absorbance	>512 µM
O=C1c2ccc(O)cc2C(=O)c2ccc(O)cc21		14.2 µM
CCCCCCCCCCCCSCC(COP(=O)([O-])OCC[N+](C)(C)C)OCCCCCCCCO	neutral red	>100 µM
COc1cc([C@@H]2c3cc(O)c(O)cc3C[C@H]3COC(=O)[C@@H]32)cc(OC)c1OC	MTT	>10 µg/mL
CC(=O)O[C@H]1CC[C@@]2(C)C(CC[C@@]3(C)C4=CC[C@@]5(C(=O)O)CCC(C)(C)CC5[C@]4(C)CCC23)C1(C)C	MTS	6.7 µM
CC(=O)N(O)CCCP(=O)(O)O	fluorescence	>59 µM
CC(O)/C=C/C=C/C=C\CCCCCCCc1cccc(O)c1O	WST	48.7 µM
COc1cc(C2c3c(cc4c(c3OC)OCO4)C[C@H]3COC(=O)[C@H]23)cc(OC)c1OC	MTT	>10 µg/mL
O=c1[nH]c(=S)n([C@H]2C[C@H](O)[C@@H](CO)O2)cc1F		>383 µM
O=C(O)c1cc(O)c2c(c1)C(=O)c1cccc(O)c1C2=O		>40 µM
CO/N=C/c1ccc(OCCC2CCN(c3ccc(C)nn3)CC2)cc1C	neutral red	>0.1 µg/mL
Cc1cc2c(cc1O)C1=CC(=O)C(C)(C)C1=CC2=O	MTS	1.3 µM
O=c1[nH]c(=S)n([C@@H]2O[C@H](CO)[C@@H](O)[C@@H]2O)cc1Br		>590 µM
C[C@]1(CO)O[C@@H](n2ccc(N)nc2=O)C[C@@H]1O	MTT	260 µM
CC(Oc1ccc2ncccc2c1)C(=O)N/N=C/c1cccc(CO)c1	absorbance	>512 µM
CO/N=C/c1ccc(OCCC2CCN(c3ccc(Cl)nn3)CC2)c(C)c1	neutral red	>0.1 µg/mL
CCCCCCCCCCCCCCCCOC[C@@H](O)COP(=O)(O)C(=O)O		479 µM
CC(=O)Oc1ccc(/C=C/C(=O)O[C@@H]2[C@@H](OC(C)=O)[C@H](C)O[C@@H](Oc3c(-c4ccc(OC(C)=O)cc4)oc4cc(OC(C)=O)cc(OC(C)=O)c4c3=O)[C@@H]2OC(=O)/C=C/c2ccc(OC(C)=O)cc2)cc1		>8.2 µM
COC(=O)N[C@H](C(=O)N1CCC[C@H]1c1nc2ccc(-c3csc4c(-c5ccc(-c6cnc([C@@H]7CCCN7C(=O)[C@H](NC(=O)OC)c7ccccc7)[nH]6)cc5)csc34)cc2[nH]1)C(C)C	resazurin	>50 µM
CCCCCCCCCCCCCCCCCCSC[C@H](O)COP(=O)(O)C(=O)O		320–1000 µM
CO/N=C/c1ccc(OCCC2CCN(c3nc4ccccc4o3)CC2)cc1	neutral red	>0.1 µg/mL
O=C(O)P(=O)(O)O		>1000 µM
N#CCc1csc2ccccc12	visual reading	>100 µg/mL
O=C1c2ccccc2C(=O)c2c(O)ccc(O)c21		>41.6 µM
O=c1ccn([C@H]2C[C@H](O)[C@@H](CO)O2)c(=S)[nH]1		>412 µM

A second listing of 5 rows from above:

compound	method	value
CO/N=C/c1ccc(OCCC2CCN(c3nc4ccccc4o3)CC2)cc1	neutral red	>0.1 µg/mL
COC(=O)N[C@H](C(=O)N1CCC[C@H]1c1nc2ccc(-c3csc4c(-c5ccc(-c6cnc([C@@H]7CCCN7C(=O)[C@H](NC(=O)OC)c7ccccc7)[nH]6)cc5)csc34)cc2[nH]1)C(C)C	resazurin	>50 µM
CC(Oc1ccc2ncccc2c1)C(=O)N/N=C/c1ccccc1	absorbance	>512 µM
O=C1c2ccccc2C(=O)c2c(O)ccc(O)c21		>41.6 µM
Cc1cn([C@@H]2O[C@H](CO)[C@@H](O)[C@@H]2O)c(=S)[nH]c1=O		>730 µM